Pooled drug test results. Numbers come from NIAID ChemDB, via PubChem.

All rows: tests on isolated targets; species: HIV-1; protein: Protease; measure: inhibition

Conditions beyond the fields shown may differ between rows.

compound,method,strain or isolate,tested at,result
CC(C)COC(=O)[C@H](CC1CCCCC1)NC(=O)C(=O)N[C@@H](CC1CCCCC1)C(=O)OCC(C)C,absorbance,,10 µM,<10%
CC[C@H](C)C(NC(=O)CNCC(O)[C@H](Cc1ccccc1)NC(=O)OCc1ccccc1)C(=O)N[C@@H](Cc1ccccc1)C(=O)OC,,,10 µM,3%
Cc1cn([C@@H]2C[C@@H](N=[N+]=[N-])[C@H](COC(=O)CC(C)(C)CC(=O)N[C@@H](Cc3ccccc3)[C@H](O)C(=O)N3CSC[C@H]3C(=O)NC(C)(C)C)O2)c(=O)[nH]c1=O,,,5 µM,12%
COC(=O)[C@H](CC(C)C)N1C[C@@H]2O[C@H](C1=O)[C@H](C(=O)N1CCN(CCc3ccccc3)CC1)O2,FRET,,10 µM,0%
CC(=O)N[C@@H](CSc1ccccc1)C(=O)N[C@@H](Cc1ccccc1)[C@H](O)Cc1ccccc1C(=O)NC(C)(C)C,fluorescence,,1 µg/mL,8%
CCOC(=O)[C@@]1(C)CC[C@]2(C)CC[C@]3(C)C(=CC(=O)[C@@H]4[C@@]5(C)CC/C(=N\OCc6cc(F)cc(F)c6)C(C)(C)[C@@H]5CC[C@]43C)[C@@H]2C1,substrate cleavage / fluorescence,,1000 µg/mL,39.3%
CC(C)(C)NC(=O)c1ccccc1C[C@@H](O)[C@H](Cc1ccccc1)NC(=O)[C@H](N)CSCc1ccccc1,fluorescence,,1 µg/mL,16%
CC[C@H](C)[C@H](NC(=O)[C@@H]1CCCN1C(=O)[C@@H](O)[C@H](Cc1ccccc1)NC(=O)[C@H](CO)NC(=O)Cc1ccccc1)C(=O)N[C@H](C(N)=O)C(C)C,,,1000 µM,72.3%
CC[C@H](C)[C@H](NC(=O)CN(O)C(=O)[C@H](Cc1ccccc1)NC(=O)OC(C)(C)C)C(=O)N[C@@H](Cc1ccccc1)C(=O)O,,,10 µM,25%
CCOC(=O)c1ccc(CO/N=C2\CC[C@]3(C)[C@H]4C(=O)C=C5[C@@H]6C[C@@](C)(C(=O)OCC)CC[C@]6(C)CC[C@@]5(C)[C@]4(C)CC[C@H]3C2(C)C)o1,substrate cleavage / fluorescence,,1000 µg/mL,34.6%
CC[C@H](C)[C@H](NC(=O)[C@H](Cc1ccccc1)NCC(O)[C@H](Cc1ccccc1)NC(=O)OC(C)(C)C)C(=O)N[C@@H](Cc1ccccc1)C(=O)OC,,,10 µM,64%
O=C(N[C@@H](Cc1ccccc1)C(=O)OCc1ccccc1)C(=O)N[C@@H](Cc1ccccc1)C(=O)OCc1ccccc1,absorbance,,10 µM,<10%
CC(C)(C)OC(=O)N[C@H]1CCCCNC(=O)CC(=O)NCCCC[C@@H](C(N)=O)NC(=O)[C@H](Cc2ccccc2)NC(=O)CC(Cc2ccccc2)NC1=O,,,10 µM,2%
CC(C)(C)NC(=O)[C@@H]1Cc2ccccc2N1C(=O)[C@@H](O)[C@H](Cc1ccccc1)NC(=O)[C@H](CC(N)=O)NC(=O)OCc1ccccc1,,,5 µM,4.8%
CCOC(=O)[C@@]1(C)CC[C@]2(C)CC[C@]3(C)C(=CC(=O)[C@@H]4[C@@]5(C)CC/C(=N\OCc6cccc(Br)c6)C(C)(C)[C@@H]5CC[C@]43C)[C@@H]2C1,substrate cleavage / fluorescence,,1000 µg/mL,25.5%
CCCO[C@H]1[C@H](OCc2ccccc2)[C@@H](O)[C@H](Oc2ccccc2)O[C@@H]1CNC(=O)C(NC(C)=O)C(C)C,,,100 µM,20%
O=C1OC2(CCCCCC2)C(O)=C1C(c1ccccc1)C1CC1,fluorescence,,3.3 µM,100%
CO[C@@H]([C@@H](CC(C)[C@@H]1CC[C@]2(C)C3=CCC4C(C)(C)C(O)CC[C@]4(C)C3CC[C@@]12C)OC(C)(C)C)C(C)(C)O,substrate cleavage / fluorescence,,100 µg/mL,41.6%
CCOC(=O)[C@@]1(C)CC[C@]2(C)CC[C@]3(C)C(=CC(=O)[C@@H]4[C@@]5(C)CC/C(=N\OCc6ccc(Cl)c(Cl)c6)C(C)(C)[C@@H]5CC[C@]43C)[C@@H]2C1,substrate cleavage / fluorescence,,1000 µg/mL,7.38%
CCCC1(CCC)OC(=O)C(C(c2cccc(NS(=O)(=O)c3nnnn3-c3ccccc3)c2)C2CC2)=C1O,fluorescence,,3.3 µM,100%
O=C(NCCO)[C@@H]1O[C@]2(c3ccccc3)CN(C(c3ccccc3)c3ccccc3)C(=O)[C@H]1O2,FRET,,10 µM,0%
CCCC1(CCC)OC(=O)C(C(c2cccc(NS(=O)(=O)c3ccc(C#N)cc3)c2)C2CC2)=C1O,fluorescence,,3.3 µM,100%
CCOC(=O)[C@H](CC(C)C)NC(=O)[C@H](Cc1ccccc1)NC(=O)[C@@H](O)[C@H](Cc1ccccc1)NC(=O)OC(C)(C)C,HPLC,,33 µM,0%
CCC(=O)O[C@H]1c2cc3c(c(OC)c2-c2c(cc(OC)c(OC)c2O)C[C@@H](C)[C@H]1C)OCO3,HPLC,,100 µg/mL,41%
CC(=O)N[C@@H](CSCc1ccccc1)C(=O)N[C@@H](Cc1ccccc1)[C@H](O)Cc1ccccc1C(=O)NC(C)(C)C,fluorescence,,1 µg/mL,12%
CC(C)[C@H](NC(=O)[C@@H]1CCCN1C(=O)[C@@H](O)[C@H](Cc1ccccc1)NC(=O)[C@H](CC(N)=O)NC(=O)CCc1ccccc1)C(N)=O,,,5 µM,60.9%
CC(C)COC(=O)[C@@H](Cc1ccccc1)NC(=O)C(=O)N[C@H](Cc1ccccc1)C(=O)OCC(C)C,absorbance,,10 µM,<10%
CC(C)C[C@@H](C(=O)O)N1C[C@@H]2O[C@H](C1=O)[C@H](C(=O)N1CCCCC1)O2,FRET,,1 µM,0%
CC(C)(C)CNC(=O)[C@@H]1CCCN1C(=O)[C@@H](O)[C@H](Cc1ccccc1)NC(=O)[C@H](CC(N)=O)NC(=O)OCc1ccccc1,,,5 µM,87.6%
CC(C)C[C@@H](CC[C@@H](Cc1ccccc1)C(=O)N[C@H](C(=O)N[C@H](C(N)=O)C(C)C)C(C)C)NC(=O)[C@@H](NC(=O)[C@@H](NC(=O)OC(C)(C)C)C(C)C)C(C)C,,,10 µM,29%
CC[C@H](C)COC(=O)[C@@H](Cc1ccccc1)NC(=O)C(=O)N[C@H](Cc1ccccc1)C(=O)OC[C@@H](C)CC,absorbance,,10 µM,<10%
CC(C)(C)C(=O)OC[C@@H]1[C@@H](O)[C@H](OC(=O)C(C)(C)C)[C@H](O)C[NH+]1Cc1ccccc1,,,100 µM,8%
CCC1(Cc2ccccc2)OC(=O)C(C(c2ccccc2)C(C)C)=C1O,fluorescence,,3.3 µM,100%
CO[C@@H]([C@@H](CC(C)[C@@H]1CC[C@]2(C)C3=CCC4C(C)(C)C(=O)CC[C@]4(C)C3CC[C@@]12C)OC(C)(C)C)C(C)(C)O,substrate cleavage / fluorescence,,100 µg/mL,17.1%
CCOC(=O)[C@@]1(C)CC[C@]2(C)CC[C@]3(C)C(=CC(=O)[C@@H]4[C@@]5(C)CC/C(=N\OCc6ccc(C)cc6)C(C)(C)[C@@H]5CC[C@]43C)[C@@H]2C1,substrate cleavage / fluorescence,,1000 µg/mL,1%
Cc1ccccc1CNC(=O)[C@H]1N(C(=O)[C@@H](O)[C@H](Cc2ccccc2)NS(=O)(=O)c2ccc(Br)s2)CSC1(C)C,fluorescence,NL4-3,0.064 µM,16%
CC(C)COC(=O)[C@H](Cc1ccccc1)NC(=O)[C@@H](O)[C@H](O)C(=O)N[C@@H](Cc1ccccc1)C(=O)OCC(C)C,absorbance,,10 µM,<10%
O=C1[C@H]2O[C@@H](CN1Cc1ccccc1)O[C@H]2C(=O)N1CCCNCC1,FRET,,10 µM,0%
CCOC1C[C@@H](C(=O)NC(C)(C)C)N(C(=O)[C@@H](O)[C@H](Cc2ccccc2)NC(=O)[C@H](CS(C)(=O)=O)NC(=O)COc2cccc3ccccc23)C1,,,0.05 µM,8.8%
CC[C@H](C)[C@H](NC(=O)C[C@H](O)[C@H](Cc1ccccc1)NC(=O)OC(C)(C)C)C(=O)N[C@@H](Cc1ccccc1)C(=O)OC,,,10 µM,74%
Cc1cn([C@@H]2C[C@@H](N=[N+]=[N-])[C@H](COC(=O)C(C)C(C)C(=O)N[C@@H](Cc3ccccc3)[C@H](O)C(=O)N3CSC[C@H]3C(=O)NC(C)(C)C)O2)c(=O)[nH]c1=O,,,5 µM,26%
CC[C@@H](C)[C@H](NC(=O)[C@H](CCC(N)=O)NC(=O)[C@@H]1CCCN1C(=O)[C@@H](O)[C@H](Cc1ccccc1)NC(=O)[C@H](CC(N)=O)NC(=O)CCc1ccccc1)C(N)=O,,,5 µM,38%
Cc1cn([C@@H]2C[C@@H](N=[N+]=[N-])[C@H](COC(=O)CCCC(=O)N[C@@H](Cc3ccccc3)[C@H](O)C(=O)N3CSC[C@H]3C(=O)NC(C)(C)C)O2)c(=O)[nH]c1=O,,,5 µM,12%
CC1=CC[C@H]([C@@H](C)C2CC[C@@]3(C)C4=C(C=C5C=CC(=O)OC(C)(C)C5CC4)CC[C@]23C)OC1=O,HPLC,,100 µg/mL,94.8%
CC(C[C@@H](O)[C@H](O)C(C)(C)O)[C@@H]1CC[C@]2(C)C3=CCC4C(C)(C)C(=O)CC[C@]4(C)C3CC[C@@]12C,substrate cleavage / fluorescence,,100 µg/mL,15.5%
CC(C)(C)NC(=O)c1ccccc1C[C@@H](O)[C@H](Cc1ccccc1)NC(=O)[C@@H](CSCc1ccccc1)NC(=O)OC(C)(C)C,fluorescence,,1 µg/mL,3%
CC(C[C@H]1OC(C)(C)O[C@@H]1C(C)(C)O)[C@@H]1CC[C@]2(C)C3=CCC4C(C)(C)C(=O)C[C@]4(C)C3CC[C@@]12C,substrate cleavage / fluorescence,,100 µg/mL,-2.07%
COC(=O)C[C@H](O)C(CC(C)C)NC(=O)[C@H](C)NC(=O)C[C@H](O)[C@H](Cc1ccc(O)cc1)NC(=O)[C@@H](NC(=O)[C@H](Cc1ccc(O)cc1)NC(=O)OCc1ccccc1)C(C)C,fluorescence,,1 µM,0%

Repeating the first 4 entries:

compound,method,strain or isolate,tested at,result
CC(C)COC(=O)[C@H](CC1CCCCC1)NC(=O)C(=O)N[C@@H](CC1CCCCC1)C(=O)OCC(C)C,absorbance,,10 µM,<10%
CC[C@H](C)C(NC(=O)CNCC(O)[C@H](Cc1ccccc1)NC(=O)OCc1ccccc1)C(=O)N[C@@H](Cc1ccccc1)C(=O)OC,,,10 µM,3%
Cc1cn([C@@H]2C[C@@H](N=[N+]=[N-])[C@H](COC(=O)CC(C)(C)CC(=O)N[C@@H](Cc3ccccc3)[C@H](O)C(=O)N3CSC[C@H]3C(=O)NC(C)(C)C)O2)c(=O)[nH]c1=O,,,5 µM,12%
COC(=O)[C@H](CC(C)C)N1C[C@@H]2O[C@H](C1=O)[C@H](C(=O)N1CCN(CCc3ccccc3)CC1)O2,FRET,,10 µM,0%

Blank or dashed fields: not listed here. Percent inhibition refers to the dose given; in toxicity tests it is the harm to the cells.